The text below walks through data of PubChem BioAssay AID588501 (NMMLSC, 2011).

Molecules are shown by their SMILES. Only a part is listed here, and it is no random draw. Activity calls are given as the source filed them. No stated cut-off is given here; in the data, active means inhibition above about 30%; inconclusive means no clear call, values can overlap the other calls; inactive means below that.

One may read the inhibition as the change of the read-out against control, counted positive when it falls.

This assay addresses Lethal factor (Bacillus anthracis) (UniProt P15917). Description: anthrax lethal factor cleavage blockers – biochemical, multiplex microsphere, MLPCN library, primary screen (AID 588501). Further: plate controls were buffer without enzyme for full effect and enzyme alone for no effect. Particulars: multiplex microsphere protease cleavage assay, LF; at 10 µM; stronger effect = higher value.
With `CN(C)c1ccc(C(=O)NCC2(N3CCCCC3)CCCCC2)cc1`, the inhibition is inactive: -4.2%.
The result for `Cn1c(=O)[nH]cc(N(CCCl)CCCl)c1=O` reads inactive: -5.9%; that for `O=C(NCC1(N2CCCCC2)CCCCC1)c1ccco1`, inactive: -0.7%; that for `COc1ccc(C(c2nnnn2C2CCCCC2)N2CCC(n3c(=O)[nH]c4ccccc43)CC2)cc1` (stereo unspecified), inactive: -0.2%.
For `CCN1CCC(Nc2cccc(F)c2)CC1` the value was inactive: -0.3%.
For `CC(C)(C)n1nnnc1C(c1ccnc2ccccc12)N1CCC(n2c(=O)[nH]c3ccccc32)CC1` (stereo unspecified) the value was inactive: 14.7%.
Take `Cc1ccccc1NC1(C#N)CCN(Cc2ccccc2)CC1`: the inhibition was inactive: 2.6%.
For `Fc1ccccc1NC1CCN(Cc2ccccc2)CC1` the value was inactive: 1.9%.
The result for `Cc1ccc(C(=O)NCC2(N3CCCCC3)CCCCC2)o1` reads inactive: -0.5%.
The result for `Cc1ccc(NC2(C#N)CCN(Cc3ccccc3)CC2)cc1` reads inactive: 0.8%.
With `CCC(c1nnnn1C1CCCCC1)N1CCC(n2c(=O)[nH]c3ccccc32)CC1` (stereo unspecified), the inhibition was inactive: -3.7%.
On to `COc1cccc(C(c2nnnn2C2CCCCC2)N2CCC(n3c(=O)[nH]c4ccccc43)CC2)c1OC` (stereo unspecified), for which the inhibition is inactive: 4.5%.
Consider `CC(=O)N(c1ccccc1)C1CCNCC1`, for which the inhibition was inactive: -6.9%.
The result for `COc1cc(OC)cc(C(=O)NCC2(N3CCCCC3)CCCCC2)c1` reads inactive: 9.7%; that for `O=c1[nH]c2ccccc2n1C1CCN(C(c2ccnc3ccccc23)c2nnnn2C2CCCCC2)CC1` (stereo unspecified), inactive: -1.5%.
For `CN1CCC(Nc2ccc(Cl)cc2)CC1` the value was inactive: 1.8%.
For `COc1cc(OC)cc(C(=O)NCC2(N3CCOCC3)CCCCC2)c1` the value was inactive: -2.8%; for `COc1cccc(C(c2nnnn2C2CCCC2)N2CCC(n3c(=O)[nH]c4ccccc43)CC2)c1OC` (stereo unspecified), inactive: 7.7%.
In the case of `COc1cccc(C(=O)N(c2cc(C)cc(C)c2)C2CCN(C(=O)OC(C)(C)C)CC2)c1`, the inhibition is inactive: 2.7%.
Take `CCC(CO)(C(=O)OC1CN2CCC1CC2)c1ccccc1` (stereo unspecified): the inhibition is inactive: 0.1%.
Regarding `O=C(O)C1(Nc2ccccc2)CCN(Cc2ccccc2)CC1`, the inhibition is inactive: -0.5%.
For `NN(c1ccccc1)C1CCN(CCc2ccccc2)CC1` the value was inactive: -2.1%.
In the case of `CC(C)(C)OC(=O)N1CCC(Nc2ccccc2)CC1`, the inhibition was inactive: -2.8%.
The result for `O=c1[nH]c2ccccc2n1C1CCN(C(c2cc3ccccc3o2)c2nnnn2C2CCCC2)CC1` (stereo unspecified) reads inactive: -2.5%; that for `CCCOc1ccc(C(=O)NCC2(N(C)C)CCCCC2)cc1`, inactive: 3.6%; that for `CN1CCC(Nc2ccc(F)c(Cl)c2)CC1`, inactive: -1.2%.
The result for `CCOc1ncccc1C(=O)NCC1(N2CCOCC2)CCCCC1` reads inactive: 0.7%; that for `O=c1[nH]c2ccccc2n1C1CCN(C(c2cccs2)c2nnnn2C2CCCC2)CC1` (stereo unspecified), inactive: -0.5%; that for `O=C(OC1CN2CCC1CC2)C1c2ccccc2C=Cc2ccccc21` (stereo unspecified), inactive: 0.8%.
The result for `CCCCn1nnnc1C(c1cccc(OC)c1OC)N1CCC(n2c(=O)[nH]c3ccccc32)CC1` (stereo unspecified) reads inactive: 0.6%; that for `COc1cccc(C(c2nnnn2C(C)(C)C)N2CCC(n3c(=O)[nH]c4ccccc43)CC2)c1OC` (stereo unspecified), inactive: 1.6%; that for `N/C(=N\O)c1c(N)no[n+]1[O-]`, inactive: 1%.
For `O=c1[nH]c2ccccc2n1C1CCN(C(c2cccs2)c2nnnn2C2CCCCC2)CC1` (stereo unspecified), the inhibition was inactive: -17%.
In the case of `O=c1[nH]c2ccccc2n1C1CCN(C(c2ccnc3ccccc23)c2nnnn2C2CCCC2)CC1` (stereo unspecified), the inhibition was inactive: 4%.
Regarding `COc1ccc(C(=O)NCC2(N3CCOCC3)CCCCC2)cc1OC`, the inhibition was inactive: -4%.
The result for `COc1cc(C(=O)NCC2(N3CCOCC3)CCCCC2)cc(OC)c1C` reads inactive: 1.5%; that for `CCCCn1nnnc1C(c1ccccc1)N1CCC(n2c(=O)[nH]c3ccccc32)CC1` (stereo unspecified), inactive: 0.2%; that for `O=C(NCC1(N2CCOCC2)CCCCC1)c1cc(Br)ccc1Cl`, inactive: 3.8%.
For the molecule `CC(C)(C)n1nnnc1C(c1cccc2ccccc12)N1CCC(n2c(=O)[nH]c3ccccc32)CC1` (stereo unspecified), the inhibition is inactive: 3.6%.
Consider `CN(C)C1(CNC(=O)c2cccc(C#N)c2)CCCCC1`, for which the inhibition was inactive: 9.8%.
In the case of `O=c1[nH]c2ccccc2n1C1CCN(C(c2ccccc2)c2nnnn2C2CCCC2)CC1` (stereo unspecified), the inhibition was inactive: -5.7%.
For `CCCN1CCC(Nc2cc(OC)cc(OC)c2)CC1`, the inhibition was inactive: -11%.
Regarding `Cc1cc(N(CCCl)CCCl)ccc1C=O`, the inhibition is inactive: 4%.
For `c1ccc(CN2CCC(Nc3ccccc3)CC2)cc1` the value was inactive: -0.2%; for `N#Cc1ccc(C(=O)NCC2(N3CCCCC3)CCCCC2)cc1`, inactive: 2.8%; for `CC(C)(C)OC(=O)N1CCC(N(C(=O)c2ccccc2)c2ccc(Cl)cc2)CC1`, inactive: -13%.
As to `COc1cc(C(=O)NCC2(N3CCCCC3)CCCCC2)ccc1OC(F)F`, the inhibition is inactive: -1.2%.
As for `O=C(NCC1(N2CCOCC2)CCCCC1)c1cc(=O)[nH]c2ccccc12`, the inhibition is inactive: -1.3%.
For `CN1CCN(CCOC(=O)C(O)(c2ccccc2)c2ccccc2)CC1` the value was inactive: 10.6%; for `COc1ccc(NC2CCN(C(=O)OC(C)(C)C)CC2)cc1`, inactive: -2.8%.
The result for `CC(C)c1ccc(C(=O)NCC2(N3CCOCC3)CCCCC2)cc1` reads inactive: -5.6%.
For `CCCCn1nnnc1C(c1cccc2ccccc12)N1CCC(n2c(=O)[nH]c3ccccc32)CC1` (stereo unspecified) the value was inactive: -6%; for `O=C(NCC1(N2CCCCC2)CCCCC1)c1cccc(C(F)(F)F)c1`, inactive: -0.5%.
For the molecule `O=c1[nH]c2ccccc2n1C1CCN(C(c2ccccc2OC(F)(F)F)c2nnnn2C2CCCC2)CC1` (stereo unspecified), the inhibition was inactive: 3.3%.
For the molecule `N#CC1(Nc2ccccc2)CCN(CCc2ccccc2)CC1`, the inhibition is inactive: 1.5%.
The result for `CCN1CCC(Nc2ccc(Cl)cc2)CC1` reads inactive: -14.9%.
With `O=C(NCC1(N2CCCCC2)CCCCC1)c1cccc([N+](=O)[O-])c1`, the inhibition was inactive: -1.3%.
The result for `CSc1ccc(C(=O)NCC2(N3CCOCC3)CCCCC2)cc1` reads inactive: 1.9%.
The result for `O=C(NCC1(N2CCCCC2)CCCCC1)c1ccc(OC(F)F)cc1` reads inactive: -0.1%.
For `CC(C)(C)n1nnnc1C(c1ccccc1OC(F)(F)F)N1CCC(n2c(=O)[nH]c3ccccc32)CC1` (stereo unspecified) the value was inactive: -0.3%; for `COc1ccc(C(c2nnnn2C2CCCC2)N2CCC(n3c(=O)[nH]c4ccccc43)CC2)cc1` (stereo unspecified), inactive: -0.4%.
